Key:
Assay in all cases: ELISA
[1] = biological target: SARS-CoV-2 Beta RBD (SARS-CoV-2 Beta)
[2] = biological target: SARS-CoV-2 Omicron BA.1 RBD (SARS-CoV-2 Omicron BA.1)
[3] = biological target: SARS-CoV-2 Omicron BA.2 RBD (SARS-CoV-2 Omicron BA.2)

Measured: EC50

C102 IgG
> 10 µg/mL: all assays above

C144 IgG
> 10 µg/mL: all assays above

From patent publication US20230250157A1
